# Reference: PubChem BioAssay AID588689 (Southern Research Specialized Biocontainment Screening …, 2011)
# Sequences of proteins named here, by UniProt entry; tags and fusion partners are left off.
# UniProt P29991, whole entry, looked up: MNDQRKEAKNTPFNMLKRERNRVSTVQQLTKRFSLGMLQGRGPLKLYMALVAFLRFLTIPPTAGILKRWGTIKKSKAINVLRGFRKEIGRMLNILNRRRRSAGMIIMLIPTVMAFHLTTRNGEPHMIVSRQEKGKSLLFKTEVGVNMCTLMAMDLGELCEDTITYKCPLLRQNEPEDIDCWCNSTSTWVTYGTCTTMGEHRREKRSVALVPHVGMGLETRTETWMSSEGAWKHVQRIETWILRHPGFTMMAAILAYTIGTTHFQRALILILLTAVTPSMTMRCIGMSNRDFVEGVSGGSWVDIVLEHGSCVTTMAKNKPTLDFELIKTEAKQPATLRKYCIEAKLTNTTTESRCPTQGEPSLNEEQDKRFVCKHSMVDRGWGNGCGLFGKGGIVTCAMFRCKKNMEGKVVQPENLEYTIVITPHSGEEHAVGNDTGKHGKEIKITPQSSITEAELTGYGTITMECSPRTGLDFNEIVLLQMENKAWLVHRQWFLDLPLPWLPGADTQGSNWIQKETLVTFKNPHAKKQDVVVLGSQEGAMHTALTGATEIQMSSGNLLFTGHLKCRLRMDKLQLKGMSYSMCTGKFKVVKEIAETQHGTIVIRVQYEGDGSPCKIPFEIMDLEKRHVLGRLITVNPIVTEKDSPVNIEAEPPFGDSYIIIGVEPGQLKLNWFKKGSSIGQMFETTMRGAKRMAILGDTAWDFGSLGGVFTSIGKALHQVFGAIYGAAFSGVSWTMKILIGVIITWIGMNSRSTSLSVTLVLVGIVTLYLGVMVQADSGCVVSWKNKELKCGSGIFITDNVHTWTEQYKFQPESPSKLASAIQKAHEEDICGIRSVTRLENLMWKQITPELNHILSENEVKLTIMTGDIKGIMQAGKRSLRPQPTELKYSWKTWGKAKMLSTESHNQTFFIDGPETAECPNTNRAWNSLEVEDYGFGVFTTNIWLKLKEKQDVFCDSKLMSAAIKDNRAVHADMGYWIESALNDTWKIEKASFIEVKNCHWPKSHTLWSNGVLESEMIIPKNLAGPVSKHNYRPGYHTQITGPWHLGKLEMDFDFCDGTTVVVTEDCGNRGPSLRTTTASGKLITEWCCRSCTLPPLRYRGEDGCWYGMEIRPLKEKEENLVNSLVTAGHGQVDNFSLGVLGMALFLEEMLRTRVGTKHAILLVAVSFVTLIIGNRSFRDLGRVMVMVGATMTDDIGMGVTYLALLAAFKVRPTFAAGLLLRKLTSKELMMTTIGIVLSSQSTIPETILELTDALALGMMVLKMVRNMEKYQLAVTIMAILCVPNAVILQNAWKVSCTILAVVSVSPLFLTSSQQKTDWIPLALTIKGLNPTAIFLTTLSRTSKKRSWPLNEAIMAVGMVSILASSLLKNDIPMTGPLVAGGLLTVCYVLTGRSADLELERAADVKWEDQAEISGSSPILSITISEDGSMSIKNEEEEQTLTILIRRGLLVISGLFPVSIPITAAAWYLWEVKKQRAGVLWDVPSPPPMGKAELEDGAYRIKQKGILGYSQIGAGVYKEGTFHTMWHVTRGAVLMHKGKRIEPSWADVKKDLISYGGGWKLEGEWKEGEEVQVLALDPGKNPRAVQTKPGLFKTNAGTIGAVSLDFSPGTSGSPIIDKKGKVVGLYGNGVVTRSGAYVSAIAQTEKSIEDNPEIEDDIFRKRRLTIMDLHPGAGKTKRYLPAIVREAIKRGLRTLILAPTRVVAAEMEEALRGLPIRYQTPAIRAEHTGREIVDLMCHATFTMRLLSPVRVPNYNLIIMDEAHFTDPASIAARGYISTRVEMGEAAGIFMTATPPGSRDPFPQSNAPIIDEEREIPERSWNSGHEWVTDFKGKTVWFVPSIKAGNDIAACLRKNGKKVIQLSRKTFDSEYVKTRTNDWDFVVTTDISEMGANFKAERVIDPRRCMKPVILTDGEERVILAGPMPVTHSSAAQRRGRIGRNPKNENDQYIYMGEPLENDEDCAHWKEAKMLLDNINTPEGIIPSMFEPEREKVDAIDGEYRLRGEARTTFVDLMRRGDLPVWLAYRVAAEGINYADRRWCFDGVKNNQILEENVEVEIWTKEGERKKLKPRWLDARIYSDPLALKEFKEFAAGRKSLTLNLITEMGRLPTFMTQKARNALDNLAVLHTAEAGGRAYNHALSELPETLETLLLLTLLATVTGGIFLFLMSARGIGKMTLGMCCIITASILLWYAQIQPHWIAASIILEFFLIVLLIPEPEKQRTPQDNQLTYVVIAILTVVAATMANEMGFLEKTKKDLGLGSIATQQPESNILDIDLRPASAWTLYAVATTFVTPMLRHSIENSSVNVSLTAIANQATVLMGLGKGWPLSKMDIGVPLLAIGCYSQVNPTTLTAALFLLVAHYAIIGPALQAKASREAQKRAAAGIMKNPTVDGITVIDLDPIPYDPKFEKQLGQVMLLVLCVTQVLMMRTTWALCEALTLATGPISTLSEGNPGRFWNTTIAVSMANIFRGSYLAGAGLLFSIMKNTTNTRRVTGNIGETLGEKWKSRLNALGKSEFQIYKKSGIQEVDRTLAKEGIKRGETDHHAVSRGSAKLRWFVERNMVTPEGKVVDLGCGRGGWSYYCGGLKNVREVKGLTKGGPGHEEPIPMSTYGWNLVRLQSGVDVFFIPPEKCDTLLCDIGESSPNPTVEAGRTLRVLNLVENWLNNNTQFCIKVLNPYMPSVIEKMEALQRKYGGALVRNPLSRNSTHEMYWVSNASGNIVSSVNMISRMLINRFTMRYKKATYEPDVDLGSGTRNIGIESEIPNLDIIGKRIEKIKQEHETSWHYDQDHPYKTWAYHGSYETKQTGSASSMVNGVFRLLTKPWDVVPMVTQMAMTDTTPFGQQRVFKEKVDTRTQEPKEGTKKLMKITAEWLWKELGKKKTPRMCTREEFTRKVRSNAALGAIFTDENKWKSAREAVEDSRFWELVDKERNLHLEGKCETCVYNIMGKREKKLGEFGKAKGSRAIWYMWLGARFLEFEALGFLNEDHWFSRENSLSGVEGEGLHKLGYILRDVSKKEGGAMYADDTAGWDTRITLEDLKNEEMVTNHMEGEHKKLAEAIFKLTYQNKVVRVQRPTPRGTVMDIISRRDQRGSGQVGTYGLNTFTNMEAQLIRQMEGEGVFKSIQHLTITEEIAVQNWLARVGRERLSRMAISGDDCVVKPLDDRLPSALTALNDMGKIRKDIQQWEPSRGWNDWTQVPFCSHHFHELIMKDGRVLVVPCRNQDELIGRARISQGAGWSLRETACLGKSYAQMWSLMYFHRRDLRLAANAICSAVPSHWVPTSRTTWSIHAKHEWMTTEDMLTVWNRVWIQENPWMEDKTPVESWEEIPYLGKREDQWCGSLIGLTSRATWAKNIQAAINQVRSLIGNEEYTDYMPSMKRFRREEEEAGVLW
# The list shows a part of the results. Entries with a potency or affinity are not part of this list. Activity calls are given as the source filed them. No stated cut-off is given here; in the data, inconclusive means inhibition above about 29% without an active follow-up result; inactive means below that.
# Molecular target: Genome polyprotein (Dengue virus type 2 (strain 16681-PDK53)) (UniProt P29991)
# Assay: Dengue-2 NS5 methyltransferase inhibitors, primary screen, biochemical, confirmation dose response (AID 588689)
# Details: Dengue-2 NS5 methyltransferase capping enzyme assay, at 25 µM, active compounds read high
row,Compound,inhibition
1,O=C(O)C(=O)c1ccc(N(CCCl)CCCl)cc1,inactive: -2.28%
2,O=C(COc1ccccc1)OC1CN2CCC1CC2 (configuration not stated),inactive: -0.8%
3,O=C(Nc1ccncc1[N+](=O)[O-])c1ccc([N+](=O)[O-])cc1[N+](=O)[O-],inactive: 0.65%
4,COP1(=S)c2c(C)nn(CCC#N)c2N=C(c2ccc(F)cc2)N1C (configuration not stated),inactive: 1.4%
5,CCC(C)N(CC(C)C)C(=S)SC(NC(C)=O)C(Cl)(Cl)Cl (configuration not stated),inactive: -2.45%
6,O=C(OC1CN2CCC1CC2)c1cccc([N+](=O)[O-])c1 (configuration not stated),inactive: -12.4%
7,CSc1ccc(Nc2c([N+](=O)[O-])cc([N+](=O)[O-])cc2[N+](=O)[O-])cc1,inactive: 32.2%
8,CCOC(=O)c1ccc(NC(=O)C(C)(CCl)SC)cc1 (configuration not stated),inactive: -3.11%
9,COP(=O)(OC)N1CC1c1ccccc1 (configuration not stated),inactive: 4.6%
10,CCCCOc1ccc(C(=O)NCC2(N3CCCCC3)CCCCC2)cc1OC,inactive: -9.98%
11,Cc1cc(SC(NC(=O)c2ccccc2)C(Cl)(Cl)Cl)nc(C(C)C)n1 (configuration not stated),inactive: 5.48%
12,O=C(O)C(O)c1ccc(N(CCCl)CCCl)cc1 (configuration not stated),inactive: -1.71%
13,CCOC(=O)Nc1ccc([As](=O)(O)O)c(O)c1,inactive: -9.13%
14,CC1CCNP(=O)(N(CCCl)CCCl)O1 (configuration not stated),inactive: 3.1%
15,Cc1cc(SC(NC=O)C(Cl)(Cl)Cl)ncn1 (configuration not stated),inactive: 0%
16,O=P(Nc1ccccn1)(c1cccc2ccccc12)c1cccc2ccccc12,inactive: 0%
17,O=[N+]([O-])c1ccc(Nc2ccc(Oc3ccc([N+](=O)[O-])cc3[N+](=O)[O-])cc2)c([N+](=O)[O-])c1,inactive: -5.22%
18,CCOC(=O)Nc1cccc([As](=O)(O)O)c1,inactive: -3.92%
19,O=C(Nc1cc([As](=O)(O)O)ccc1O)c1ccccc1,inactive: 0%
20,O=P1(N(CCCl)CCCl)OCCCS1 (configuration not stated),inactive: -1.55%
21,O=C(O)CNc1ccc([As](=O)(O)O)cc1,inactive: -0.65%
22,COC(=O)C1(C)COP(=O)(Nc2ccccc2)OC1 (configuration not stated),inactive: 8.87%
23,O=[N+]([O-])c1cccc(NC2=NCC(CBr)S2)c1 (configuration not stated),inactive: -1.53%
24,O=[N+]([O-])c1ncn(CCn2ncnc2[N+](=O)[O-])n1,inactive: -7.64%
25,CC(C)(C)C(=O)NC(Sc1ccncn1)C(Cl)(Cl)Cl (configuration not stated),inactive: -19.3%
26,Cc1ccc(NP(=O)(Oc2ccccc2)Oc2ccccc2)nc1,inactive: -3.7%
27,O=[N+]([O-])c1cc([N+](=O)[O-])c(CCNc2ccccc2)c([N+](=O)[O-])c1,inactive: 0%
